The data set relates to MCF-7 cells. Type of data set: cell-based, human. The note with it: 28 at 10 µM, 36 at 5 µM, 30 min, intrinsic fluorescence, DAPI filter.

Turning to `Cc1nccc2c1[nH]c1cc(OCCNC(=O)C[c-]3cccc3)ccc12.[Fe+2].c1cc[cH-]c1` [Compound 36, N-(2-((1-Methyl-9H-pyrido[3,4-b]indol-7-yl)oxy)ethyl)-2-ferrocenylacetamide], the intracellular localization result is on record as “the fluorescence of the nuclei was not as apparent”.

Values taken from article PMC9408872, “Harmicens, Novel Harmine and Ferrocene Hybrids: Design, Synthesis and Biological Activity” (International Journal of Molecular Sciences, 2022).
